Measured values reported in PubChem BioAssay AID1085 (Emory University Molecular Libraries Screening Center, 2008).
This is a selection; strong and weak results do not stand in their true shares. Active and inactive are the calls of the source. No stated cut-off is given here; in the data, active means inhibition above about 50%; inactive means the rest.

Chains of the proteins cited; added tags and fusions are not shown.
UniProt Q1HVG2, whole entry: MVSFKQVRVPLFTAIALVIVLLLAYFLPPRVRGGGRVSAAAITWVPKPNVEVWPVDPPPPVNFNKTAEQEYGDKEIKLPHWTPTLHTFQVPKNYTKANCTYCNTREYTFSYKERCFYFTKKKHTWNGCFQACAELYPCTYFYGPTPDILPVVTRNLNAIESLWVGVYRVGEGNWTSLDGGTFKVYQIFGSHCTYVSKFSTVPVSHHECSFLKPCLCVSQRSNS

What follows are molecules tested against Glycoprotein 42 (Epstein-Barr virus (strain AG876)) (UniProt Q1HVG2) (assay: Epstein-Barr virus gp42 inhibitors, primary screen, biochemical, uHTS, fluorescence polarization (AID 1085)). Details: Fluorescence polarization binding assay, mP read-out; stronger effect = higher value; tested at 21.74 µM.

Q: `COC(=O)c1cc2c(s1)N=C(c1ccccc1)N(C)P2(=O)N1CCOCC1` (stereo unspecified) was tested. Which inhibition did it give?
A: Its inhibition is inactive: -16.1%.
